According to PMC10893357 (Viruses, 2024):

Columns and labels:
Format in all cases: cell-based
[1] = tested on: SARS-CoV-2 Omicron, BA 5.2 hCov-19/Russia/Moscow-49415/2022; assay: Antiviral CPE reduction assay in Vero E6 cells, Omicron BA.5.2; details: Om. 5.2; CC50/EC50 ratio
[2] = tested on: SARS-CoV-2 Omicron, BA.1 hCoV-19/Russia/Moscow171619-031221/2021; assay: Antiviral CPE reduction assay in Vero E6 cells, Omicron BA.1; details: Om. B.1.; CC50/EC50 ratio
[3] = tested on: SARS-CoV-2 Wuhan, lineage B.1.1 hCoV-19/Russia/Omsk202118_1707/2020; assay: Antiviral CPE reduction assay in Vero E6 cells, Wuhan; details: CC50/EC50 ratio
[4] = tested on: SARS-CoV-2 Delta, lineage B.1.617.2 hCoV-19/Russia/PSK-2804/2021; assay: Antiviral CPE reduction assay in Vero E6 cells, Delta; details: CC50/EC50 ratio
[5] = tested on: SARS-CoV-2 Omicron, XBB 1.5 hCoV-19/Russia/SAK-SRC-8527/2023; assay: Antiviral CPE reduction assay in Vero E6 cells, Omicron XBB.1.5; details: Om. XBB; CC50/EC50 ratio
[6] = tested on: SARS-CoV-2 Omicron lineage BQ.1.1 hCoV-19/Russia/TOM-SRC-8663/2023; assay: Antiviral CPE reduction assay in Vero E6 cells, Omicron BQ.1.1; details: Om. BQ; CC50/EC50 ratio

CC(=O)C1=C(O)C=C2Oc3c(-c4csc(N/N=C/c5ccc(Br)s5)n4)c(O)c(C)c(O)c3[C@@]2(C)C1=O [(+)-3e]
SI [1]: 17 | SI [2]: 17 | SI [3]: 14 | SI [4]: 8 | SI [5]: 15 | SI [6]: 11

CCC(CC)COC(=O)[C@H](C)N[P@](=O)(OC[C@H]1O[C@@](C#N)(c2ccc3c(N)ncnn23)[C@H](O)[C@@H]1O)Oc1ccccc1 [Remdesivir, reference compound]
SI [1]: 159 | SI [2]: 356 | SI [3]: 186 | SI [4]: 338 | SI [5]: 267 | SI [6]: 226
